Source: article PMC10633841 (American Journal of Respiratory Cell and Molecular Biology, 2023)

Biological target: His-tagged full-length SARS-CoV-2 nucleocapsid protein (N-protein) (SARS-CoV-2)
Experiment: SPR

B1: Recombinant RAGE protein (receptor for advanced glycation endproducts) (receptor)
chain: AQNITARIGEPLVLKCKGAPKKPPQRLEWKLNTGRTEAWKVLSPQGGGPWDSVARVLPNGSLFLPAVGIQDEGIFRCQAMNRNGKETKSNYRVRVYQIPGKPEIVDSASELTAGVPNKVGTCVSEGSYPAGTLSWHLDGKPLVPNEKGVSVKEQTRRHPETGLFTLQSELMVTPARGGDPRPTFSCSFSPGLPRHRALRTAPIQPRVWEPVPLEEVQLVVEPEGGAVAPGGTVTLTCEVPAQPSPQIHWMKDGVPLPLPPSPVLILPEIGPQDQGTYSCVATHSSHGPQESRAVSISIIEPGEEGPTAGSVGGSGLGTLA
How did the Kd turn out when B1 was run?
The Kd was 34.5 nM.
